Pooled drug test results. Numbers come from NIAID ChemDB, via PubChem.

Common to all: tests in culture; organism: Rhinovirus; read-out: EC50

Lines come from different laboratories, so protocols vary. An empty or dashed field is not shown. a–b is a range or a potency band. ECn: concentration that inhibits the pathogen or its effect by n%.

structure	strain	cells	read by	result
COc1ccc(N2CCN(c3cccc(C)c3)CC2)nn1	TYPE 9	HeLa	cytopathic effect	0.005 µg/mL
CCO/N=C/c1ccc(OCCC2CCN(c3ccc(C)nn3)CC2)cc1	121564 (ICAM-1 receptor group 86)	KB	neutral red	0.041 µM
Nc1ncnc2c1ncn2[C@@H]1C[C@@H](O)[C@H](CO)O1	TYPE 5	KB	-	>100 µM
OCCS	-	HeLa	-	<400 µM
c1ccc2c(c1)CCc1ccccc1C2	TYPE 14	HELA-H1	cytopathic effect	>200 µM
CC(C)S(=O)(=O)n1c(N)nc2ccc(/C(=N/O)c3ccccc3)cc21	TYPE 9	HeLa	cytopathic effect	0.03–0.06 µg/mL
C#CC[C@H](CC(=O)c1ccc(-c2ccccc2C)[nH]1)C(=O)N[C@H](/C=C/C(=O)OCC)C[C@@H]1CCNC1=O	Serotype 14	H1-HELA	XTT	0.124 µM
O=Cc1ccc(OCCC2CCN(c3ccc(Cl)nn3)CC2)cc1	TYPE 1A	KB	cytopathic effect / visual reading	12.06 µg/mL
CCOC(=O)/C=C/[C@H](CCC(N)=O)NC(=O)[C@H](Cc1ccc(F)cc1)NC(=O)[C@H](CC(C)C)NC(=O)OCc1ccccc1	-	-	-	0.54 µM
Nc1ccn([C@@H]2C[C@@H](O)[C@H](CO)O2)c(=O)n1	TYPE 5	KB	-	>100 µM
Cc1ccc(C)c(CN2CCN(c3nc(C(=O)O)cs3)CC2)c1	TYPE 2	HeLa	cytopathic effect	0.5 µg/mL
C#CC[C@@H](C(=O)N[C@H](/C=C/C(=O)OCC)C[C@@H]1CCNC1=O)n1cccc(NC(=O)c2cc(C)on2)c1=O	Serotype 10	H1-HELA	cytopathic effect / XTT	0.042 µM
Nc1nccc2c1ncn2[C@@H]1C[C@H](CO)[C@@H](O)[C@H]1O	TYPE 1A	WI-38	cytopathic effect	>100 µg/mL
CCO/N=C/c1ccc(OCCC2CCN(c3ccc(C)nn3)CC2)cc1	TYPE 2	MRC-5	cytopathic effect / visual reading	0.0002 µg/mL
CC(C)S(=O)(=O)n1c(N)nc2ccc(/C(=N/O)c3ccccc3)cc21	Serotype 14	HeLa	plaque count	0.03 µg/mL
COc1cc(O)c(CC=C(C)C)c2c1C(=O)CC(c1ccc(O)cc1)O2	TYPE 14	VERO	cytopathic effect	6.6 µg/mL
Cc1cccc(N2CCN(c3ccc(Br)nn3)CC2)c1	TYPE 9	HeLa	cytopathic effect	0.13 µg/mL
OC1c2ccccc2C=Cc2ccccc21	TYPE 16	HELA-H1	cytopathic effect	50 µM
COc1ccc(CNC(=O)c2c(O)cc(OCC=C(C)C)cc2OC)cc1	TYPE 2	HeLa	cytopathic effect	0.002 µg/mL
S=C(S)N1CCCC1	TYPE 8	HeLa	-	>31 µM

Again, the opening 2 rows:

structure	strain	cells	read by	result
COc1ccc(N2CCN(c3cccc(C)c3)CC2)nn1	TYPE 9	HeLa	cytopathic effect	0.005 µg/mL
CCO/N=C/c1ccc(OCCC2CCN(c3ccc(C)nn3)CC2)cc1	121564 (ICAM-1 receptor group 86)	KB	neutral red	0.041 µM